Results of unrelated studies side by side (data: NIAID ChemDB).

Shared fields: whole-cell or culture tests; organism: Mycobacterium avium complex; endpoint: MIC

Blank or dashed fields: not listed here.

| structure | strain or isolate | method | result |
|---|---|---|---|
| C[C@@H]1CN(c2c(F)c(N)c3c(=O)c(C(=O)O)cn(C4CC4)c3c2F)C[C@H](C)N1 | 20 | broth dilution | 2 µg/mL |
| CC1(CN)CCN(c2c(F)cc3c(=O)c(C(=O)O)cn(C4CC4)c3c2F)C1 | 1760694 | - | 32 µg/mL |
| CN[C@@H]1[C@H](O[C@H]2[C@H](O[C@H]3[C@H](O)[C@@H](O)[C@H](N=C(N)N)[C@@H](O)[C@@H]3N=C(N)N)O[C@@H](C)[C@]2(O)C=O)O[C@@H](CO)[C@H](O)[C@H]1O | ATCC 13950 | - | ≤12.5 µg/mL |
| NC[C@H]1O[C@H](O[C@H]2[C@H](O[C@@H]3O[C@H](CO)[C@@H](O)[C@H]3O)[C@@H](O)[C@H](N)C[C@@H]2N)[C@H](N)[C@@H](O)[C@@H]1O | Isolate 122 | - | 25 µg/mL |
| CC[C@@H](CO)NCCN[C@@H](CC)CO | 13008 (serotype 20) | - | 0.4 µg/mL |
| O=C(O)c1cn(C2CC2)c2c(F)c(N3CCNCC3)c(F)cc2c1=O | 1988557 | - | 4 µg/mL |
| CC(C)N=c1cc2n(-c3ccc(Cl)cc3)c3ccccc3nc-2cc1Nc1ccc(Cl)cc1 | CH-4/HIV+ | - | 0.25 µg/mL |
| NCCC(O)C(N)CC(=O)NC1CNC(=O)C(C2CCN=C(N)N2)NC(=O)/C(=C/NC(N)=O)NC(=O)C(CO)NC(=O)C(CO)NC1=O | TMC 1473 | - | 6.25 µg/mL |
| CCN(CC)CC1CCN(c2c(F)cc3c(=O)c(C(=O)O)cn(C4CC4)c3c2F)C1 | 1760694 | - | 16 µg/mL |
| NC[C@H]1O[C@H](O[C@H]2[C@H](O)[C@@H](O[C@H]3O[C@H](CO)[C@@H](O)[C@H](N)[C@H]3O)[C@H](N)C[C@@H]2N)[C@H](O)[C@@H](O)[C@@H]1O | Isolate 122 | - | 50 µg/mL |
| COC1CCN(c2c(F)cc3c(=O)c(C(=O)O)cn(C4CC4)c3c2F)C1 | 1172733 | - | 2 µg/mL |
| NCCC[C@H](N)CC(=O)N[C@H]1CNC(=O)[C@H]([C@H]2C[C@H](O)NC(N)=N2)NC(=O)/C(=C/NC(N)=O)NC(=O)[C@H](CO)NC(=O)[C@H](CO)NC1=O | TMC 1406 | - | 0.78 µg/mL |
| CC[C@@H](CO)NCCN[C@@H](CC)CO | 2212-4 | - | 3.8 µg/mL |
| CN[C@@H]1[C@H](O[C@H]2[C@H](O[C@H]3[C@H](O)[C@@H](O)[C@H](N=C(N)N)[C@@H](O)[C@@H]3N=C(N)N)O[C@@H](C)[C@]2(O)C=O)O[C@@H](CO)[C@H](O)[C@H]1O | 13011 (serotype 16) | - | 6.25 µg/mL |
| NC[C@@H]1O[C@H](O[C@H]2[C@@H](O)[C@H](O[C@@H]3[C@@H](O)[C@H](N)C[C@H](N)[C@H]3O[C@H]3O[C@H](CO)[C@@H](O)[C@H](O)[C@H]3N)O[C@@H]2CO)[C@H](N)[C@@H](O)[C@@H]1O | SK47/HIV+ | - | 6.25 µg/mL |
| O=C(O)c1cn(C2CC2)c2c(F)c(N3CCS(=O)CC3)c(F)cc2c1=O | 1915112 | - | 4 µg/mL |

Conditions beyond the fields shown may differ between rows.